# From publication PMC3276558, “The B-Cell Specific Transcription Factor, Oct-2, Promotes Epstein-Barr Virus Latency by Inhibiting the Viral Immediate-Early Protein, BZLF1”
# Target: T1, Oct-2 (UniProt P09086)
# T1 sequence (looked up, limits assumed): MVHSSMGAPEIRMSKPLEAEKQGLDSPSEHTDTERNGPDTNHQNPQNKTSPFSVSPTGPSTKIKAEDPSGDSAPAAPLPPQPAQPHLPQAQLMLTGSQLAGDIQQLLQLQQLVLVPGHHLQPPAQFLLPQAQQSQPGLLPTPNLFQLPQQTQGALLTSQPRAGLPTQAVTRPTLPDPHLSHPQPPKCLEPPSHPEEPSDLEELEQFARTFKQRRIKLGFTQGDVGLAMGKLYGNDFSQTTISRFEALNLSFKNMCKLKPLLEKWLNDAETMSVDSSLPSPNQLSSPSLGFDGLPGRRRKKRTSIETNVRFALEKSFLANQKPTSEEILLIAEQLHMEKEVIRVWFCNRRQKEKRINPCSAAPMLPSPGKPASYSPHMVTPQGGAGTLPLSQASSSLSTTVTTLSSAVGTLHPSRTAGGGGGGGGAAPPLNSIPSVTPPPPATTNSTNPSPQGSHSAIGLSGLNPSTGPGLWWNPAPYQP
# Experiment: EMSA
# Conditions: EMSA with in vitro-translated protein and 32P-labelled annealed ds oligonucleotide, label: 32P (T4 PNK, 5' end)
sequence,measurement,value
CAGTGATGCAAATCTTGT (double strand) [Oct probe],binding result,binds

# For at least one entry, the source does not settle the construct or the ends of the probe. At least one verdict was read from the data and is not stated in words by the source. Protein sequences can lack the tags named with them.
